Experimental findings from ChEMBL document CHEMBL1811860, “Synthesis and inhibitory activity of sialic acid derivatives targeted at viral sialate-O-acetylesterases” (Eur J Med Chem, 2011) are described below.

Assay [1] in a line: Inhibition of Bovine coronavirus 9-SOAE expressed in Sf9 cells assessed as inhibition of hydrolysis of pNPA at 2 mM.
The nature of assay [2]: Inhibition of Bovine coronavirus […] assessed as inhibition of hydrolysis of pNPA at 1 mM. Particulars: Sf9.
Assay [3] is described as follows: Inhibition of Bovine coronavirus 9-SOAE expressed in Sf9 cells assessed as inhibition of hydrolysis of pNPA at 0.5 mM.
Assay [4] in a line: Inhibition of Influenza C virus C/JJ/50 9-SOAE expressed in Sf9 cells assessed as inhibition of hydrolysis of pNPA at 1 mM.
The nature of assay [5]: Inhibition of Influenza C virus C/JJ/50 9-SOAE expressed in Sf9 cells assessed as inhibition of hydrolysis of pNPA at 0.5 mM.
Assay [6] can be described thus: Inhibition of recombinant influenza C virus C/Cal/78 GFP-tagged 9-SOAE expressed in Sf9 cells assessed as inhibition of hydrolysis of pNPA at 2 mM. Summed up: (§1)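 EGFP-fused haemagglutinin-esterase was made in serum-free Sf9 cultures via recombinant baculovirus and recovered from supernatant by ultracentrifugation (1.5 h, 4 °C). It was preincubated with sialoside for 30 min at room temperature. pNPA (10 µl of 100 mM acetonitrile stock) was added in PBS pH 7.4 to 1 ml, and A400 was followed. Read-out was % inhibition of pNPA hydrolysis.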

Assay [7] can be described thus: Inhibition of recombinant influenza C virus C/Cal/78 GFP-tagged 9-SOAE expressed in Sf9 cells assessed as inhibition of hydrolysis of pNPA at 1 mM. A digest of the protocol: as §1
Assay [8] is described as follows: Inhibition of recombinant influenza C virus C/Cal/78 GFP-tagged 9-SOAE expressed in Sf9 cells assessed as inhibition of hydrolysis of pNPA at 0.5 mM. Summed up:
as §1

Assay [9] is described as follows: Inhibition of SDAV GFP-tagged 9-SOAE expressed in Sf9 cells assessed as inhibition of hydrolysis of pNPA at 5 mM. Particulars: Rat sialodacryoadenitis coronavirus. Summed up:
as §1

The nature of assay [10]: Inhibition of SDAV GFP-tagged 9-SOAE expressed in Sf9 cells assessed as inhibition of hydrolysis of pNPA at 1 mM. To be noted: Rat sialodacryoadenitis coronavirus. Summed up:
as §1

Assay [11] in a line: Inhibition of SDAV GFP-tagged 9-SOAE expressed in Sf9 cells assessed as inhibition of hydrolysis of pNPA at 0.5 mM. Particulars: Rat sialodacryoadenitis coronavirus. A digest of the protocol: as §1
Assay [12] in a line: Inhibition of SDAV GFP-tagged 9-SOAE expressed in Sf9 cells assessed as inhibition of hydrolysis of pNPA at 0.1 mM. To be noted: Rat sialodacryoadenitis coronavirus. A digest of the protocol:
as §1

The nature of assay [13]: Inhibition of MHV S 4-SOAE expressed in Sf9 cells assessed as inhibition of hydrolysis of pNPA at 5 mM. Particulars: Murine coronavirus.
Assay [14] is described as follows: Inhibition of MHV S 4-SOAE expressed in Sf9 cells assessed as inhibition of hydrolysis of pNPA at 1 mM. To be noted: Murine coronavirus.
A short description of assay [15]: Inhibition of MHV S 4-SOAE expressed in Sf9 cells assessed as inhibition of hydrolysis of pNPA at 0.5 mM. To be noted: Murine coronavirus.
Assay [16] is described as follows: Inhibition of MHV S 4-SOAE expressed in Sf9 cells assessed as inhibition of hydrolysis of pNPA at 0.1 mM. Particulars: Murine coronavirus.

Take `C=CCO[C@]1(C(=O)O)C[C@H](O)[C@@H](NC(C)=O)[C@H]([C@H](O)[C@H](O)COP(C)(=O)O)O1`: the inhibition in [1] is less than 0%; in [2] it was 2.7%; in assay [3] it was 9.78%; in assay [4], 3.85%; in [5] it was less than 0%; in [6], 7.91%. The inhibition turned out to be 6.08% in assay [7] and 1.06% in assay [8].

`C=CCO[C@]1(C(=O)O)C[C@H](OP(C)(=O)O)[C@@H](NC(C)=O)[C@H]([C@H](O)[C@H](O)CO)O1`: the inhibition in assay [9] came out at 11%; in assay [10] it was 0.65%; in assay [11], 2.89%; in assay [12], 8.3%; in [13], 7.81%; in assay [14], 11.9%. The inhibition is 2.36% in assay [15] and 5% in assay [16].

By inhibition is commonly meant the share of the control response that was lost under treatment.
